This note sets out measurements from patent US20030120073A1, “Alpha-ketocarboxylic acid based inhibitors of phosphoryl tyrosine phosphatases” (priority 2001, published 2003).

The chains behind the UniProt entries cited, without tags or fusion partners.
UniProt P15273, whole entry: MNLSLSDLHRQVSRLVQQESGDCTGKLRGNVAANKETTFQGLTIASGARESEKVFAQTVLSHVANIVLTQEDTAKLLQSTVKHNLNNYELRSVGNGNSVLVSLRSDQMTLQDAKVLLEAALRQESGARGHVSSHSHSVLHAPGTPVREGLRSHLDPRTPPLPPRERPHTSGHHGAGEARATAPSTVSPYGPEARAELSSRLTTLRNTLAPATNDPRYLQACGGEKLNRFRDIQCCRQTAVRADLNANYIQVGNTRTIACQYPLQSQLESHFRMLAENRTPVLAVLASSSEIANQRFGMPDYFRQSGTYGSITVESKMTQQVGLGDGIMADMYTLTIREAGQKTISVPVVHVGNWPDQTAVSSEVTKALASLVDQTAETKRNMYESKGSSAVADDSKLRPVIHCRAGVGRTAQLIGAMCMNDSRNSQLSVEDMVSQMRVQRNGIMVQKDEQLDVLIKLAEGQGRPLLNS

The test concerns the target Yersinia PTPase (Yersinia enterocolitica, UniProt P15273). As to the kind of experiment: Yersinia PTPase assay (p-NPP hydrolysis, UV at 420 nm). The conditions noted are these: read-out: IC50 Yersinia PTPase; Table 2; average of two measurements; 2.5 mM p-NPP, pH 5.5, 10% DMSO. On the procedure:
Yersinia and LAR PTPase Assays: The phosphatase activities of the Yersinia and LAR PTPases (purchased from Calbiochem) were assayed using p-NPP as the substrate and the reaction progress was monitored by UV spectroscopy. Initial rates were determined by monitoring the hydrolysis of p-NPP at 420 nm, from 10 to 120 s after mixing. Assay solutions contained 2.5 mM substrate, 1 mM EDTA, 100 mM NaCl, 100 mM acetate at pH 5.5, and 10% DMSO. IC50 values were calculated using a Dixon analysis. Data analysis was performed with the commercial graphing package Grafit (Erithacus Software Ltd.).

Turning to `O=C(O)C(=O)c1ccc(OCc2ccc(COc3ccc(C(=O)C(=O)O)cc3)cc2)cc1`, the IC50 was determined as 700 nM.
